Data as given in patent US8383617B2, “Treatment of protein aggregation diseases” (priority 2007, dated 2013).

System: ScGT1 cells
Experiment: Prion content of scrapie-infected cell line (Seprion capture assay)
Assay type: cell-based, mouse
Details: 5 μM, first passage after one week exposure, listed as Fluphenazine (repeat)

Compound: OCCN1CCN(CCCN2c3ccccc3Sc3ccc(C(F)(F)F)cc32)CC1 [Fluphenazine, fluphenazine]
- prion content signal, drug tested singly: 0.687
